How the values were obtained:
[1] = system: HCV replicon RNA replication in Huh-7 luc/neo (Huh-Luc) cells; experiment: HCV replicon assay (stable replicon cell reporter assay, luciferase read-out); type: cell-based, HCV type 1b; details: incubation of three days, luciferase activity
[2] = molecular target: HCV NS5B polymerase (His-tagged, C-terminal 21 amino acid deleted NS5B, HC-J4) (Hepatitis C virus genotype 1b, UniProt O92972); experiment: NS5b polymerase assay (biochemical RdRp assay, 3H-GTP incorporation, SPA beads); design: species or system HCV genotype 1b; details: read-out: NS5B Polymerase Assay IC50

Amino acid sequences for entries named in this document (tags omitted). A change or cut given only in a name is not applied to a line headed by its entry. Chains listed by the source or under a name are the forms on record and can include a tag or linker. Residues count along the entry.
UniProt O92972, 2420-2989 with tags or gaps, stated change not applied: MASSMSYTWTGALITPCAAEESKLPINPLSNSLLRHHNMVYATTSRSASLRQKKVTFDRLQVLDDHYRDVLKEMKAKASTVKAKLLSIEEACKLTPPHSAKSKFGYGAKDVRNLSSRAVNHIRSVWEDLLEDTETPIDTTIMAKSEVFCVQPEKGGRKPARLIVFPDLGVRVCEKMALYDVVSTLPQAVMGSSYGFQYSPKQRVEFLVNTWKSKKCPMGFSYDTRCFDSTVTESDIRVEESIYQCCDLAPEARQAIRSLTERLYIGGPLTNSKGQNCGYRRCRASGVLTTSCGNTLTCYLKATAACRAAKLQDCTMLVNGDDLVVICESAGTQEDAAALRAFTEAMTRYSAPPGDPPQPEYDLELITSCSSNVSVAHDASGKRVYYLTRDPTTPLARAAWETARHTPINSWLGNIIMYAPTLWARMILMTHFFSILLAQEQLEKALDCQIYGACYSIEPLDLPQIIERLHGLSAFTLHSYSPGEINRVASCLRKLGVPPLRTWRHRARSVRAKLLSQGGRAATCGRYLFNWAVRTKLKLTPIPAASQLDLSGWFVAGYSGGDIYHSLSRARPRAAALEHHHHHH

SMILES	EC50 [1]	IC50 [2]
CC1(C)CC(=O)C2=C(C1)Nc1cccc(Br)c1NC2c1ccc(Cl)cc1Cl (stereo not shown)	5.17 µM	25.6 µM
CC1(C)CC(=O)C2=C(C1)Nc1cc(C#N)ccc1NC2c1ccc(Cl)cc1Cl (stereo not shown)	17 µM	9.35 µM
